For experiment [1], the target named is T1, RTA (Ricinus communis, UniProt P02879). Briefly: Interaction energy between RTA and ligand by molecular mechanics minimization (SYBYL, Tripos force field). The following applies: difference pterin(3) vs pterin(1).
A further experiment has as its target ricin A chain (RTA) (Ricinus communis, UniProt P02879). Briefly: Inhibition of RTA in the Artemia salinas ribosome in vitro protein synthesis assay. The following applies: within the limits of solubility, pH 9.
For experiment [2], the target named is T1, RTA. The experiment is described as follows: Crystallographic binding to RTA crystals (soaking / cocrystallization). The following applies: for binding to RTA crystals: soaking or cocrystallization.
Experiment [3] relates to Artemia salinas ribosomes. The experiment is described as follows: Effect of the inhibitor itself on in vitro protein synthesis, without RTA. The following applies: no RTA.

Take `Nc1nc2nccnc2c(=O)[nH]1`: the “interaction energy more favorable than for pterin(1)” value at RTA [1] is “about 8 Kcal/mole”.

Turning to pterin-6-carboxylic acid, the “inhibition of RTA” value at ricin A chain (RTA) is “Neither pterin-6-carboxylic acid nor folic acid acted as inhibitors”. Also, the “binding to RTA crystals” value at RTA [2] is recorded as “failed to produce stable complexes”.

With `Nc1cc(C(=O)O)ccc1O`, the “binding to RTA crystals” value on RTA [2] is “failed”.

In the case of `Nc1nc2ncc(CNc3ccc(C(=O)N[C@@H](CCC(=O)O)C(=O)O)cc3)nc2c(=O)[nH]1`, the “inhibition of RTA” value is recorded as “Neither pterin-6-carboxylic acid nor folic acid acted as inhibitors” against ricin A chain (RTA) and “does not inhibit RTA” on ricin A chain (RTA) (listed as Folic acid). For the same compound, the “binding to RTA crystals” value at RTA [2] is on record as “failed to produce stable complexes”; on RTA [2] (listed as Folic acid) it was “nor does it bind to RTA crystals”.

With rhodizonic acid, on RTA [2], the “binding to RTA crystals” value is on record as “failed to bind to RTA crystals”.

Consider `Nc1nc2ncc(CNc3ccc(C(=O)O)cc3)nc2c(=O)[nH]1`, for which the refined occupancy in RTA crystal complex on RTA [2] (monoclinic crystals, pH 9, 2.3 Å) turned out to be 100%. Besides, the “effect on protein synthesis using Artemia salinas ribosomes” value in experiment [3] is “minor inhibitory effect”.

As to `Cc1cc(O)c2c(c1)C(=O)c1cc(O)cc(O)c1C2=O`, on RTA [2], the “binding to RTA crystals” value was “failed”.

For `Nc1nc(O)c2[nH]c(O)nc2n1`, the “binding to RTA crystals” value is given as “unsuccessful” on RTA [2] and “did not bind to RTA” at RTA [2] (listed as 2-amino-6,8-dihydrooxypurine).

These data come from patent US6562969B1, “Ricin inhibitors and methods for use thereof” (dated 2003).
